This assay deals with T1, integrin αvβ3 (human), P06756.
T1 chain 1: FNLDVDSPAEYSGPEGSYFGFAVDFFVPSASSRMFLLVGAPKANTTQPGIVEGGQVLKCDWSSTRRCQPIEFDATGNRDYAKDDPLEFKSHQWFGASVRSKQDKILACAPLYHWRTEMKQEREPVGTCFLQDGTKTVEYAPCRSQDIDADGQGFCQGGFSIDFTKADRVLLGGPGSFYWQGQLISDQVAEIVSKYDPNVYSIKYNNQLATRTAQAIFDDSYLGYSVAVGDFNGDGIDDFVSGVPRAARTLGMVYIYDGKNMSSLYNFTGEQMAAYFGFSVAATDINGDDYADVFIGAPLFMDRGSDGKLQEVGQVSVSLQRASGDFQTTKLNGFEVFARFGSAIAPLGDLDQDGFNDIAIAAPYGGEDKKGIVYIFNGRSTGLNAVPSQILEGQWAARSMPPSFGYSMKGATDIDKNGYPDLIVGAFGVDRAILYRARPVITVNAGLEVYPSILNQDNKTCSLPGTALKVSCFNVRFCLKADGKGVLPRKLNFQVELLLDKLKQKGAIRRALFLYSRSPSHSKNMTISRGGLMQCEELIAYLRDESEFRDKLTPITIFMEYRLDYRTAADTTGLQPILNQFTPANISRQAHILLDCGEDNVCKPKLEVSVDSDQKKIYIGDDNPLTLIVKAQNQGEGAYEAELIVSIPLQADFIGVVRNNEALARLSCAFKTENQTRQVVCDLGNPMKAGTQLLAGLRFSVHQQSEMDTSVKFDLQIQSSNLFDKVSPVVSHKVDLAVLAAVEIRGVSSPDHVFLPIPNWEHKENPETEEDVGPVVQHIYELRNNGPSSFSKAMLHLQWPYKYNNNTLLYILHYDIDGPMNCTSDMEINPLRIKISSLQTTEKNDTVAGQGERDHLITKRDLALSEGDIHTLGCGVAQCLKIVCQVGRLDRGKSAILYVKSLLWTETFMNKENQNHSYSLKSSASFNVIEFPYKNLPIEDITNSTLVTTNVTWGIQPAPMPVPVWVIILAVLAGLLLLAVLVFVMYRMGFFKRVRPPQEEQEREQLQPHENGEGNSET
T1 chain 2: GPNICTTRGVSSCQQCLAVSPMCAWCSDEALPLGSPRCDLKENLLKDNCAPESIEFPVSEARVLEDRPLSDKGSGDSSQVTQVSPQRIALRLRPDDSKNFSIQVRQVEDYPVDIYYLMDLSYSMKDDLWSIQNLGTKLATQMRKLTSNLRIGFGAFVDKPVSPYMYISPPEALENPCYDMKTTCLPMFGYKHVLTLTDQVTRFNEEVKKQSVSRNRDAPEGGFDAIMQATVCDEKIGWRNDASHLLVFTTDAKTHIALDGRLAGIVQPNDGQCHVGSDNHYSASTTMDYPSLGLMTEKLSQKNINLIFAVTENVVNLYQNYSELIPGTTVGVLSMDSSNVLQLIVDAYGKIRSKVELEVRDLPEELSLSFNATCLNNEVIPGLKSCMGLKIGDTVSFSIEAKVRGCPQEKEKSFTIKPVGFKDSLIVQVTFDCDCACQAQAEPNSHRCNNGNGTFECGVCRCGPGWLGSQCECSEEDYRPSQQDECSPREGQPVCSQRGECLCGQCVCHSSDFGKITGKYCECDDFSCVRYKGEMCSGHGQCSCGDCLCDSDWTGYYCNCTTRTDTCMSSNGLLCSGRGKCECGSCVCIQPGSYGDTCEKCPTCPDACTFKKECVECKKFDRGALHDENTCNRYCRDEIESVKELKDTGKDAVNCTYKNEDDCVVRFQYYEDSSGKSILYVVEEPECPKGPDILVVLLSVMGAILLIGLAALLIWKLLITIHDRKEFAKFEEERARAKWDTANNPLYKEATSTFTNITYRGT
Briefly: cell-based or functional assay.

In the case of QCESGPCCRNCKFLKEGTICKRARGDDMDDYCNGKTCDCPRNPHKGPAT (modifications not checked) [Echistatin (Disintegrin echistatin-alpha or Carinatin)], the sprout angiogenesis of HDMEC in fibrin: concentration with little effect was 0.1 µg/mL.

Source of the values: patent US12053507B2, “Combination therapies for inhibiting sprout angiogenesis in the treatment of cancers” ([…] OF PHARMACY, LLC, priority 2010, dated 2024).
